Values quoted from earlier work in US9961896B2, “Cleaning liquid” (priority 2013, dated 2018).

Tests used:
Cryptosporidium parvum [1] = conditions: 4 ppm chlorine at pH 7 for 25 hours; cited from earlier work
Cryptosporidium parvum [2] = conditions: 4 ppm chlorine at pH 7 for 25 hours; cited from earlier work; remark: listed apart in the source

In the case of chlorine, the “decrease in cell viability, DAPI/PI assay” value (Cryptosporidium parvum [1]) is given as “no decrease in cell viability” and the “reduction in cell viability, excystation assay” value (Cryptosporidium parvum [2]) is given as 40%.
